Source: PubChem BioAssay AID624099 (ICCB-Longwood, 2012)

- Screen: 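Human genes that papillomavirus E2 requires to repress the HPV18 LCR promoter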 (primary screen)
- Cells: human C33A cervical carcinoma cells (HPV-negative) stably expressing BPV1 E2 and an HPV18 LCR luciferase reporter
- Knock-down reagent: siRNA pool against human genes, 40 nM
- Time to read-out: 72 h
- Read-out: 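HPV18 LCR reporter light per well, converted to plate-wise z-scores that exclude control wells, and averaged over triplicate plates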
- Scale: mean z-score and z-score: higher = stronger reporter signal, weaker E2 silencing
- Rule for the call: 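Mean z ≥ 2 together with z ≥ 2 in two or more of the three replicates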
Here is an unselected part of about 21,000 reagents tested. In the full data, 497 (2.4%) were called active. 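Higher z means weaker E2 silencing; only reporter increases were scored, and knock-downs that hurt cell survival may mask genuine repressor factors.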 Unmarked entries are inactive. Reagents against one gene are numbered here.

Gene,reagent,mean z-score,"z-score, replicate A","z-score, replicate B","z-score, replicate C"
TAF5L,1,0.32,0.16,0.43,0.37
SHC1,1,0.29,0.55,0.04,0.27
AEN,1,-0.96,-1.02,-0.91,-0.95
C17orf78,1,-0.27,-0.15,-0.36,-0.29
GLIS2,1,-0.85,-0.83,-0.93,-0.8
NPNT,1,-0.33,-0.36,-0.15,-0.47
NTF4,1,-0.62,-0.44,-0.66,-0.76
EXOC6B,1,2.09 (active),2.16,1.98,2.12
LGI1,1,0.14,0.18,0.15,0.09
NBR1,1,2.02,1.93,2.17,1.96
NSUN6,1,3 (active),3.51,3,2.49
LYZ,1,-0.53,-0.68,-0.55,-0.35
LIPG,1,-0.41,-0.3,-0.25,-0.67
CD84,1,0.76,0.99,0.67,0.61
ZNF618,1,-0.38,-0.55,-0.33,-0.28
LOC400948 (retired record),1,0.87,1.08,0.7,0.84
ZFP57,1,0.76,1.07,0.66,0.56
BSND,1,-0.7,-0.75,-0.68,-0.66
MRPS15,1,0.9,0.67,1.06,0.98
DAZ2,1,0.06,0.01,0.1,0.06
MYADML2,1,-0.38,-0.66,-0.32,-0.15
KIAA2012,1,0.39,0.13,0.45,0.6
KIAA2012,2,0.43,0.36,0.43,0.5
DSG1,1,-0.62,-0.45,-0.82,-0.6
INTS3,1,-0.02,-0.18,0.12,0
LRRC15,1,-1.34,-0.98,-1.54,-1.51
LOC389319 (retired record),1,-0.05,-0.17,0.04,-0.01
NPY1R,1,0.29,0.1,0.31,0.47
RGPD4,1,1.86,2.06,2,1.52
ACACB,1,-0.6,-0.31,-0.56,-0.94
ACSL4,1,-0.23,-0.25,-0.2,-0.24
LOC400707 (retired record),1,-0.38,-0.51,-0.49,-0.14
PYGO2,1,-0.15,-0.24,-0.16,-0.04
VSIG4,1,0.09,0.14,0.33,-0.21
COL17A1,1,0.06,-0.11,0.15,0.14
ASNS,1,0.44,0.64,0.13,0.56
AATF,1,-0.7,-0.47,-0.91,-0.73
SHPK,1,-0.69,-0.44,-0.56,-1.07
CPSF7,1,-0.6,-0.4,-0.58,-0.81

As entered above:
AEN, mean z-score → -0.96
Result of CPSF7 under “z-score, replicate C”: -0.81
PYGO2, mean z-score → -0.15
EXOC6B, z-score, replicate B = 1.98 (active)
LOC400948 (retired record), z-score, replicate C → 0.84
For “z-score, replicate C”, SHC1 has 0.27
